Anti-infective test results gathered from many reports (values: NIAID ChemDB through PubChem).

Shared fields: whole-cell or culture tests; species: Mycobacterium bovis BCG

Conditions beyond the fields shown may differ between rows. An empty or dashed field is not shown. A number after MIC or MFC names an inhibition level or a share of isolates. ECn is the concentration giving n% inhibition of infection, replication or growth.

smiles	strain or isolate	endpoint	read by	setting	result
CO[C@H]1/C=C/O[C@@]2(C)Oc3c(C)c(O)c4c(O)c(c(CN5CCN(C)CC5)c(O)c4c3C2=O)NC(=O)/C(C)=C\C=C\[C@H](C)[C@H](O)[C@@H](C)[C@@H](O)[C@@H](C)[C@H](OC(C)=O)[C@@H]1C	Pasteur	MIC	-	-	50 µM
C#CCCOC(=O)CCCCCC	1173P2	MIC	resazurin	24 h	125 µg/mL
CCCCn1cc(CN2CCCCC2)c2cc(F)ccc21	-	MIC50	turbidity	-	50 µM
Fc1ccccc1Cn1cc(/C=N/Nc2nncs2)c2ccccc21	1173P2	MIC100	broth dilution	48 h	250 µg/mL
C#CCCOC(C)=O	1173P2	MIC	resazurin	24 h	125 µg/mL
C[C@H]1COC2(CCN(c3nc(=O)c4cc(C(F)(F)F)cc(C(=O)O)c4s3)CC2)O1	BN2	MIC99	resazurin	-	>100 µg/mL
NC(=O)c1c(NC(=O)C2CC2)sc2cc(O)c(Br)cc12	-	MIC	resazurin / absorbance	-	>100 µM
CC(C(=O)O)c1ccc2c(c1)[nH]c1ccc(-c3ccccc3)cc12	-	MIC99	resazurin / visual reading / absorbance	-	62.5 µg/mL
OC(c1cc(-c2ccccc2)nc2c1ccc1ccccc12)C1CCCCN1	Pasteur	MIC	-	-	12.5 µM
NNC(=O)c1ccncc1	BCG	EC50	broth dilution	-	0.13 µM
CO[C@H]1/C=C/O[C@@]2(C)Oc3c(C)c(O)c4c(O)c(c(/C=N/N5CCN(C)CC5)c(O)c4c3C2=O)NC(=O)/C(C)=C\C=C\[C@H](C)[C@H](O)[C@@H](C)[C@@H](O)[C@@H](C)[C@H](OC(C)=O)[C@@H]1C	BCG	MIC	broth dilution / visual reading	-	0.001 µg/mL
CO[C@H]1/C=C/O[C@@]2(C)Oc3c(C)c(O)c4c(O)c(c(/C=N/N5CCN(C)CC5)c(O)c4c3C2=O)NC(=O)/C(C)=C\C=C\[C@H](C)[C@H](O)[C@@H](C)[C@@H](O)[C@@H](C)[C@H](OC(C)=O)[C@@H]1C	Pasteur	MIC	resazurin	-	0.0019 µg/mL
Cc1ccc(Cn2cc(/C=N/Nc3nncs3)c3ccccc32)cc1	1173P2	MIC100	broth dilution	24 h	62.5 µg/mL
Cc1nc(NCCc2ccc(OC(F)(F)F)cc2)c2ccc(F)cc2n1	-	MIC50	luminescence	-	3.27 µM
[O-]c1ccccc1CNCCCCCCNCCCCCCCCNCCCCCCNCc1ccccc1[O-]	Pasteur	MIC	-	-	1.56 µM
O=C(O)C(Cc1ccc(I)cc1)Nc1nc(-c2ccc(Cl)c(Cl)c2)cs1	-	MIC95	agar	-	>50 µg/mL
C#CC(C)(C)O	1173P2	MIC	resazurin	48 h	125 µg/mL
O=C(O)Cc1ccc2[nH]c3ccc(Br)cc3c2c1	-	MIC99	resazurin / visual reading / absorbance	-	250 µg/mL
CC(=O)O[C@@H]1CC(=O)O[C@H](C)C[C@@H]2O[C@@H]2/C=C/C(=O)[C@H](C)C[C@H](CC=O)[C@H](OC2OC(C)C(OC3CC(C)(O)C(OC(=O)CC(C)C)C(C)O3)C(N(C)C)C2O)[C@H]1O	Pasteur	MIC	-	-	12.5 µM
C#CC(C)OC(C)=O	1173P2	MIC	resazurin	48 h	125 µg/mL
O=C(O)c1c[nH]c2cc(OCc3ccccc3)ccc2c1=O	Pasteur	MIC	-	-	>100 µM
CNc1ccc2oc(C[C@@H]3OC4(CC[C@@H]3C)O[C@H](C(C)C(=O)c3ccc[nH]3)[C@H](C)C[C@H]4C)nc2c1C(=O)O	1173P2	MIC	resazurin	-	1.25 µg/mL
CC[C@@H](CO)NCCN[C@@H](CC)CO	1173P2	MIC	resazurin	24 h	0.75 µg/mL
CCCc1c2c([nH]c(=O)c1C)C(=O)c1[nH]c(=O)c(C)c(CCC)c1C2=O	ATCC 35734	MIC90	resazurin / fluorescence	-	0.12 µg/mL
NNC(=S)N/N=C/c1c[nH]c2ccccc12	1173P2	MIC100	broth dilution	48 h	250 µg/mL
O=C(O)c1cc(C(F)(F)F)cc2c(=O)nc(N3CCN(CC4CCCCC4)CC3)sc12	Pasteur	MIC99	resazurin	-	0.0006 µg/mL
COC(=O)Cc1ccc2[nH]c3ccc(C)cc3c2c1	-	MIC99	resazurin / visual reading / absorbance	-	31.3 µg/mL
C#CC(=O)OC	1173P2	MIC	resazurin	24 h	3.87 µg/mL
C[C@H]1COC2(CCN(c3nc(=O)c4cc(C(F)(F)F)cc([N+](=O)[O-])c4s3)CC2)O1	ATCC 35734	MIC	resazurin / fluorescence	-	<0.02 µg/mL
COc1ccc(-c2ccc3[nH]c4cc(C(C)C(=O)O)ccc4c3c2)cc1	-	MIC99	resazurin / visual reading / absorbance	-	31.3 µg/mL
C#Cc1ccccc1	1173P2	MIC	resazurin	24 h	3.87 µg/mL

Again, the opening 5 rows:

smiles | strain or isolate | endpoint | read by | setting | result
CO[C@H]1/C=C/O[C@@]2(C)Oc3c(C)c(O)c4c(O)c(c(CN5CCN(C)CC5)c(O)c4c3C2=O)NC(=O)/C(C)=C\C=C\[C@H](C)[C@H](O)[C@@H](C)[C@@H](O)[C@@H](C)[C@H](OC(C)=O)[C@@H]1C | Pasteur | MIC | - | - | 50 µM
C#CCCOC(=O)CCCCCC | 1173P2 | MIC | resazurin | 24 h | 125 µg/mL
CCCCn1cc(CN2CCCCC2)c2cc(F)ccc21 | - | MIC50 | turbidity | - | 50 µM
Fc1ccccc1Cn1cc(/C=N/Nc2nncs2)c2ccccc21 | 1173P2 | MIC100 | broth dilution | 48 h | 250 µg/mL
C#CCCOC(C)=O | 1173P2 | MIC | resazurin | 24 h | 125 µg/mL